Measurements reported in PubChem BioAssay AID1224833 (University of Georgia, 2016)
Purpose: 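Human genes whose knock-down alters rotavirus replication in monkey cells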 (primary screen). Cells: monkey MA104 kidney cells. Reagents: siRNA pool against human genes, 50 nM. Timing: 48 h knock-down before infection; read 24 h after infection. Conditions: infection with rotavirus strain RV3 two days after transfection; infectious dose for this stage not given. Measured: 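Rotavirus antigen per well by fluorescent immunoassay, normalised to non-targeting control wells on each plate and given as a standard z-score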. Direction: z-score vs non-targeting control: higher = more rotavirus replication than with non-targeting control. Call rule: In these data the active calls have z-score vs non-targeting control at about -1 or lower, or at about 1 or higher. Meaning of the calls: active = z-score beyond 1 either way; inactive = z-score within 1 of zero.
The deposit covers about 12,000 reagents; shown is an unselected part. About 5,600 of them (46%) count as active. 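Active calls cover z-scores past 1 in both directions, so they include lowered as well as raised rotavirus replication.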

gene knocked down	z-score vs non-targeting control	call
PSG5	-0.3	inactive
ZNF106	0.351	inactive
GP9	-1.83	active
MED7	-1.28	active
SERPINA12	-0.0554	inactive
GATD3	-0.584	inactive
DAZ2	-0.749	inactive
GP5	-0.979	inactive
NMUR1	-1.36	active
TRAF3IP2	2.3	active
USP46	0.725	inactive
AQP1	-1.87	active
MRPS2	1.21	active
TMEM50B	0.249	inactive
CSGALNACT2	-0.598	inactive
SRRM1	-2.1	active
H2AJ	0.563	inactive
YKT6	-0.18	inactive
RAD51B	-1.19	active
OR2T5	0.214	inactive
TMEM67	-1.51	active
NGDN	-1.22	active
PMS1	-1.55	active
COPZ2	0.544	inactive
PORCN	1.16	active
YTHDF1	0.525	inactive
PDSS2	1.17	active
MED17	-0.553	inactive
IRGC	1.3	active
CDC42EP3	-4.27	active
ARMC6	0.622	inactive
PROX2	1.26	active
CEMIP2	1.65	active
CDK2AP1	1.13	active
IL20	-1.29	active
LURAP1	0.0988	inactive
TEKTL1	0.71	inactive
ITPRIPL2	-0.891	inactive
SBNO1	0.569	inactive
PABPC3	0.149	inactive
CACHD1	-0.757	inactive
THRA	2.43	active
B4GALT4	-2.12	active
C1orf50	3.89	active
ZNF701	-1.21	active
EFHC1	1.5	active
OR10K2	-1.1	active
DCHS1	0.349	inactive
AVP	1.02	active
DEF8	2.29	active
GNRH2	1.48	active
PRPF39	-3.09	active
RPL36AL	0.0583	inactive
OTX1	1.38	active
RRAS2	1.08	active
NUP88	-1.34	active
VN1R4	-0.731	inactive
PLXNA2	0.677	inactive
ANXA2	-2.34	active
SPINK9	-1.52	active
TNFSF14	2.05	active
CABCOCO1	-0.346	inactive
TRIOBP	0.923	inactive
AOAH	-0.904	inactive
PDAP1	0.711	inactive
PNLDC1	-1.88	active
FKBP10	-0.704	inactive
UPF3B	-2.12	active
OR6M1	-1.58	active
RHOV	1.73	active
CHMP5	-0.0728	inactive
SLC4A8	-0.735	inactive
CLTCL1	-0.469	inactive
EIF4G1	1.14	active
PADI6	-1.66	active
WRAP53	1.86	active
HS3ST1	-1.24	active
TNFRSF4	0.582	inactive
IQCJ	-0.747	inactive
ASMTL	-0.676	inactive
ZKSCAN3	-1.7	active
SLC7A6OS	-0.735	inactive
SACS	-0.0921	inactive
SOX14	0.333	inactive
KIF17	-1.64	active
SOX2	1.95	active
IFNL3	-3.06	active
ANKRD49	1.5	active
PLEKHO1	-0.631	inactive
MYOZ2	-0.528	inactive
PAX3	0.926	inactive
CDH22	-0.398	inactive
CEP126	-1.9	active
ZNF529	0.128	inactive
PATE1	-2.24	active
WFDC2	-0.372	inactive
REPS1	-1.26	active
ADIPOQ	0.366	inactive
TMX4	1.47	active
FAM167B	0.672	inactive
RPL7	-1.74	active
STX5	-0.959	inactive
PIEZO2	-1.7	active
RP1L1	-1.88	active
C1QL1	0.248	inactive
TMEM176B	-2.99	active
PLXDC2	-0.333	inactive
ABLIM2	-0.0561	inactive
SPACDR	-2.2	active
SF3B4	0.463	inactive

Targets listed so far whose target name starts with A or a:
gene knocked down	z-score vs non-targeting control	call
AQP1	-1.87	active
ARMC6	0.622	inactive
AVP	1.02	active
ANXA2	-2.34	active
AOAH	-0.904	inactive
ASMTL	-0.676	inactive
ANKRD49	1.5	active
ADIPOQ	0.366	inactive
ABLIM2	-0.0561	inactive
